Source: US20110269834A1 (priority 2008, published 2011)

The compounds below were run against SARS-CoV PLpro (Severe acute respiratory syndrome coronavirus, UniProt P0C6X7).
Assay type: biochemical
Compound `COc1ccccc1C(=O)N[C@H](C)c1ccc2ccccc2c1` [Compound 5c, 2-Methoxy-N—[(R)-1-(2-naphthyl)ethyl]benzamide] has an IC50 of 90 ± 26 µM. `COc1cccc(C(=O)N[C@H](C)c2ccc3ccccc3c2)c1` [Compound 5d, 3-Methoxy-N—[(R)-1-(2-naphthyl)ethyl]benzamide] showed an IC50 of 13.5 ± 6.8 µM. `C[C@@H](NC(=O)c1ccc(N)cc1)c1cccc2ccccc12` [Compound 23, 4-Amino-N—[(R)-1-(1-naphthyl)ethyl]benzamide] showed an IC50 of 24.8 ± 1 µM.
